Anti-infective test results gathered from many reports (values: NIAID ChemDB through PubChem).

All rows: whole-cell or culture tests; organism: Mycobacterium tuberculosis

ECn: concentration that inhibits the pathogen or its effect by n%. MIC bound comes from a single tested concentration. MIC50, MIC90 and the like: level of inhibition, or share of isolates inhibited. An empty or dashed field is not shown. Lines come from different laboratories, so protocols vary. Percent inhibition refers to the dose given; in toxicity tests it is the harm to the cells.

| structure | method | tested at | cells | strain or isolate | mutations | endpoint | value |
|---|---|---|---|---|---|---|---|
| CCCCCCCCOC1O[C@@H](C(O)COC2O[C@@H](C(O)CO)[C@H](O)[C@H]2O)[C@H](O)[C@H]1O |  |  |  | H37Ra |  | MIC | >128 µg/mL |
| CNn1cc(C(=O)O)c(=O)c2cc(F)c(N3CCN(C)CC3)cc21 |  |  |  | 22 strains |  | MIC90 | 4 µg/mL |
| Cc1ccc(C2=Nc3cc(C)c(Cl)cc3S(=O)(=O)NN2)cc1 | BACTEC |  |  | H37Rv |  | MIC bound | >12.5 µg/mL |
| CCCCCCOC1=NOC2(CCN(C(=O)CCC(F)(F)F)CC2)C1 | fluorescence |  | THP-1 | H37Rv |  | EC50 | <0.5 µM |
| Cc1cccc(-n2nc3c(=O)n(C)c(=O)n(C)c3nc2=O)c1 | BACTEC |  |  | H37Rv |  | MIC bound | >12.5 µg/mL |
| C=C1C[C@H](O)[C@H](Br)C(C)(C)[C@]12CC=C(C)CC2 |  |  |  | H37Rv |  | MIC | 32 µg/mL |
| NNC(=O)c1ccncc1 |  |  |  | MDR-2 (MDR) |  | MIC | >12.8 µg/mL |
| CCOC(=O)C1=C(C)NC(C)=C(C(=O)N(CC)CC)C1c1ncc([N+](=O)[O-])n1C |  |  |  | H37Rv (ATCC 27294) |  | MIC | 0.25 µM |
| Cc1cn2c(C(=O)NCc3cccc(C(F)(F)F)c3)c(C)nc2s1 | luminescence |  |  | H37Rv |  | MIC | 6.35 µM |
| COC(=O)C(CO)NC(=O)C(CO)NC(=O)OCc1ccccc1 | BACTEC | 12.8 µg/mL |  | H37Rv |  | inhibition | 26% |
| C=CC(C)(O)CC/C=C(\C)CCC(O)C(C)(O)CCCC(C)(O)CCCC(C)(O)CCCC(C)(O)CCCC(C)(O)CCCC(C)(O)CCCC(C)(O)CCCC(C)(O)CCCC(C)(O)CCC=C(C)C |  |  |  | H37Rv |  | MIC | >128 µg/mL |
| CCN(CC)C(=O)C1=C(C)NC(C)=C(C(=O)OC)C1c1ncc([N+](=O)[O-])n1C |  |  |  | H37Rv (ATCC 27294) |  | MIC | >0.5 µM |
| CCCn1c(O)c(N=NC(=O)c2ccncc2)c2ccccc21 |  |  |  | BOVIN |  | MIC | 3.1 µg/mL |
| CC(C)[C@@H](C)CC[C@@H](C)[C@H]1CCC2C3=C[C@@H](O)[C@@]4(O)C[C@@H](O)CC[C@]4(C)C3CC[C@@]21C |  |  |  | H37Rv |  | MIC | 51 µg/mL |
| CO[C@H]1/C=C/O[C@@]2(C)Oc3c(C)c(O)c4c(c3C2=O)C(=O)C(N=CN2CCCCCC2)=C(NC(=O)/C(C)=C\C=C\[C@H](C)[C@H](O)[C@@H](C)[C@@H](O)[C@@H](C)[C@H](OC(C)=O)[C@@H]1C)C4=O |  |  |  | H37Rv |  | MIC | 0.0012 µg/mL |
| O=C(CCC(F)(F)F)N1CCC2(CC1)CC(OCC(F)(F)F)=NO2 | fluorescence |  | THP-1 | H37Rv |  | EC50 | <0.5 µM |
| O=C1NNC=Nc2ccc(cc2)S(=O)(=O)c2ccc(cc2)N=CNNC1=O | BACTEC |  |  | H37Rv |  | MIC bound | >12.5 µg/mL |
| CC(C)[C@@H](C)/C=C/[C@@H](C)[C@H]1CCC2C3=C[C@H](O)[C@@]4(O)C[C@@H](O)CC[C@]4(C)C3CC[C@@]21C |  |  |  | H37Rv |  | MIC | 11 µg/mL |
| O=C(N=Nc1c(O)[nH]c2ccccc12)c1ccncc1 |  |  |  | Human sensitive isolate |  | MIC | 2.7 µg/mL |
| C=CCNc1nc2c(s1)C(=O)c1ccccc1C2=O | BACTEC | 12.5 µg/mL |  | H37Rv |  | inhibition | 100% |
| CCSN(SCC)C(=S)c1c(C#N)cc([N+](=O)[O-])cc1[N+](=O)[O-] |  |  |  |  |  | MBC | 7.29 µg/mL |
| CCCCCCCCO[C@@H]1O[C@@H](C(COCc2ccccc2)O[C@@H]2O[C@@H](C(COC(C)=O)OC(C)=O)[C@H](OC(C)=O)[C@H]2OC(C)=O)[C@H](OCc2ccccc2)[C@H]1OCc1ccccc1 |  |  |  | H37Ra |  | MIC | >128 µg/mL |
| CCCCc1c(O)c(N=NC(=O)C[N+](C)(C)C)c2ccccc2c1O | BACTEC |  |  | H37Rv |  | MIC bound | >12.5 µg/mL |
| C=C(C)[C@@H]1CC[C@]2(COC(C)=O)CC[C@]3(C)[C@H](CC[C@@H]4[C@@]5(C)CC[C@H](OC(C)=O)C(C)(C)[C@@H]5CC[C@]43C)[C@@H]12 |  |  |  | H37Rv |  | MIC | >128 µg/mL |
| CC(N=c1cc2n(-c3ccc(Cl)cc3)c3ccccc3nc-2cc1Nc1ccc(Cl)cc1)c1ccccc1 |  |  |  | ETA-R |  | MIC | 0.4 µg/mL |
| N[C@@H]1CONC1=O | agar | 30 µg/mL |  | 592 strains |  | inhibition | 96% |
| Nc1ccn([C@@H]2O[C@H](C(O[C@@H]3O[C@H](CO)[C@@H](O)[C@H](N)[C@H]3O)[C@@H](O)[C@@H](O)[C@@H](O)[C@@H](O)CO)[C@@H](N)[C@H](O)[C@H]2O)c(=O)n1 |  |  |  | PZA-R |  | MIC | 12.5 µg/mL |
| O=C(CCC(F)(F)F)N1CCC2(CC1)CC(Br)=NO2 | fluorescence |  | THP-1 | H37Rv |  | EC50 | <0.1 µM |
| Cc1ccc([C@]2(C)CC[C@@H]3C[C@@]32C)c(O)c1 |  |  |  | H37Rv |  | MIC | 64 µg/mL |
| CCOCCN(CCOCC)c1nc2c([nH]1)c1c(O)c3c(O)c(C)c4c(c32)C(=O)[C@@](C)(O/C=C/[C@H](OC)[C@@H](C)[C@@H](OC(C)=O)[C@H](C)[C@H](O)[C@H](C)[C@@H](O)[C@@H](C)/C=C/C=C(/C)C(=O)N1)O4 |  |  |  | H37Rv |  | MIC | 0.01 µg/mL |
| Cc1cn2c(C(=O)NCc3ccc(N4CCOCC4)c(F)c3)c(C)nc2s1 | resazurin / fluorescence |  |  | H37Rv | cydKO | MIC | 0.125 µM |
| C=C[C@](C)(Cl)[C@@H](Br)/C=C/[C@](C)(Cl)CBr |  |  |  | H37Rv |  | MIC | >128 µg/mL |
| CCCN(CCC)c1nc2c([nH]1)c1c(O)c3c(O)c(C)c4c(c32)C(=O)[C@@](C)(O/C=C/[C@H](OC)[C@@H](C)[C@@H](OC(C)=O)[C@H](C)[C@H](O)[C@H](C)[C@@H](O)[C@@H](C)/C=C/C=C(/C)C(=O)N1)O4 |  |  |  | H37Rv |  | MIC | 0.02 µg/mL |
| CC(C)C1NC(=O)C(Cc2c[nH]c3ccccc23)NC1=O | BACTEC | 12.5 µg/mL |  | H37Rv |  | inhibition | 9% |
| CC(C)[C@@H](C)/C=C/[C@@H](C)[C@H]1CCC2C3=C(CC[C@@]21C)[C@@]1(C)CC[C@H](O)CC12OC2[C@@H]3O |  |  |  | H37Rv |  | MIC | 45 µg/mL |
| C/C=C\C[C@@H]1O[C@H]1/C=C/C1CCCCCCCC(=O)O1 |  |  |  | H37Rv |  | MIC | 8 µg/mL |
| O=C(CCn1[nH]c(=O)c(Cl)c(Cl)c1=O)NNc1ccc([N+](=O)[O-])cc1[N+](=O)[O-] | BACTEC | 12.5 µg/mL |  | H37Rv |  | inhibition | -5% |
| CCCCCCCCc1ccc(Oc2ccccc2)c(O)c1 |  |  |  | HN335 |  | MIC99 | 3.1 µg/mL |
| CCOC(=O)c1cc(-c2ccccc2)c(OC)c(=O)nc1-c1ccccc1 | BACTEC | 12.5 µg/mL |  | H37Rv |  | inhibition | 12% |
| Cc1cn2c(C(=O)NCc3ccc(N4CCC(c5ccc(OC(F)(F)F)cc5)CC4)cc3)c(C)nc2s1 | resazurin / fluorescence |  |  | H37Rv | QcrB6 A317T | MIC | 0.1 µM |
| Cc1nnc(NC(=O)c2ccc(Cl)c(Cl)c2)s1 | BACTEC | 12.5 µg/mL |  | H37Rv |  | inhibition | 1.2% |
| CC1=NOC2(CCN(C(=O)CCC(F)(F)F)CC2)C1 | fluorescence |  | THP-1 | H37Rv |  | EC50 | <0.5 µM |
| CC(C)C(C)/C=C/[C@@H](C)[C@H]1CCC2C3=C[C@@H](O)[C@@]4(O)C[C@@H](O)CC[C@]4(C)C3CC[C@@]21C |  |  |  | H37Rv |  | MIC | 6 µg/mL |
| CCCN(Cc1ccccc1)c1nc2c([nH]1)c1c(O)c3c(O)c(C)c4c(c32)C(=O)[C@@](C)(O/C=C/[C@H](OC)[C@@H](C)[C@@H](OC(C)=O)[C@H](C)[C@H](O)[C@H](C)[C@@H](O)[C@@H](C)/C=C/C=C(/C)C(=O)N1)O4 |  |  |  | H37Rv |  | MIC | 0.02 µg/mL |
| O=C(Nc1ccc(N=Nc2ccc(S(=O)(=O)O)cc2)cc1)c1ccc(N=Nc2ccc3c(S(=O)(=O)O)cccc3c2O)cc1 | BACTEC | 12.5 µg/mL |  | H37Rv |  | inhibition | 7% |
| CC1=C[C@@H]2[C@@H](CC1)[C@@](C)(S)CC[C@H]2C(C)C |  |  |  | H37Rv |  | MIC | >128 µg/mL |
| C[C@]1(COc2ccc(N3CCC(Oc4ccc(OC(F)(F)F)cc4)CC3)cc2)Cn2cc([N+](=O)[O-])nc2O1 |  |  |  | H37Rv (RFP-resistant) |  | MIC | 0.006 µg/mL |
| Cc1cn2c(C(=O)NCc3ccc(C(F)(F)F)cc3)c(C)nc2s1 | luminescence |  |  | H37Rv |  | MIC | 18.6 µM |
| Nc1ccc(C(=O)O)c(O)c1 | agar | 5 µg/mL |  | 35 strains |  | inhibition | 91% |
| CCCCOC(=O)C1=C(C)NC(C)=C(C(=O)N(CC)CC)C1c1ncc([N+](=O)[O-])n1C |  |  |  | H37Rv (ATCC 27294) |  | MIC | 0.001 µM |
| Cc1c2oc3c(C)ccc(C(=O)OCCN4CCCC4)c3nc-2c(C(=O)OCCN2CCCC2)c(N)c1=O | BACTEC |  |  | H37Rv |  | MIC bound | ≤12.5 µg/mL |
| CCCCCCCCO[C@H]1OC([C@@H](COC)O[C@H]2O[C@H]([C@@H](O)CO)[C@@H](O)[C@@H]2O)[C@@H](OC)[C@@H]1OC |  |  |  | H37Ra |  | MIC | >12.8 µg/mL |
| CCN(CC)C(=O)C1=C(C)NC(C)=C(C(=O)OCCCc2ccccc2)C1c1ncc([N+](=O)[O-])n1C |  |  |  | H37Rv (ATCC 27294) |  | MIC | 0.001 µM |
| COc1cc2c(c(OC)c1OC)-c1ccc(OC)c(=O)cc1C(NC1=C(Cl)C(=O)c3ccccc3C1=O)CC2 | BACTEC |  |  | H37Rv |  | MIC | >12.5 µg/mL |
| CCC(C)N(c1nc2c([nH]1)c1c(O)c3c(O)c(C)c4c(c32)C(=O)[C@@](C)(O/C=C/[C@H](OC)[C@@H](C)[C@@H](OC(C)=O)[C@H](C)[C@H](O)[C@H](C)[C@@H](O)[C@@H](C)/C=C/C=C(/C)C(=O)N1)O4)C(C)CC |  |  |  | H37Rv |  | MIC | 0.01 µg/mL |
| CCc1cc(C(N)=S)ccn1 | agar |  |  | 592 strains |  | EC50 | <5 µg/mL |
| CO[C@H]1/C=C/O[C@@]2(C)Oc3c(C)c(O)c4c(O)c(c5c(c4c3C2=O)NC2(CCN(CC(C)C)CC2)N=5)=NC(=O)/C(C)=C\C=C\[C@H](C)[C@H](O)[C@@H](C)[C@@H](O)[C@@H](C)[C@H](OC(C)=O)[C@@H]1C |  |  |  | 32 clinical isolates |  | Geometric mean MIC | 3.2 µg/mL |
| Cc1cn2c(C(=O)NCc3ccc(N4CCN(c5ccc(C(F)(F)F)cn5)CC4)c(F)c3)c(C)nc2s1 | luminescence |  |  | H37Rv |  | MIC | 28.8 µM |
| NC(=O)c1cnccn1 | agar | 25 µg/mL |  | 592 strains |  | inhibition | 85% |
| C[n+]1c(-c2ccc(/C=N/NC(=O)c3ccc(C(=O)N/N=C/c4ccc(-c5cn6ccccc6[n+]5C)cc4)cc3)cc2)cn2ccccc21 | BACTEC | 12.5 µg/mL |  | H37Rv |  | inhibition | 97% |
| CCN(CC)C(=O)C1=C(C)NC(C)=C(C(=O)OCCCCc2ccccc2)C1c1ncc([N+](=O)[O-])n1C |  |  |  | H37Rv (ATCC 27294) |  | MIC | 0.002 µM |
| CO[C@H]1/C=C/O[C@@]2(C)Oc3c(C)c(O)c4c(O)c(c5[nH]c(N(C)C)nc5c4c3C2=O)NC(=O)/C(C)=C\C=C\[C@H](C)[C@H](O)[C@@H](C)[C@@H](O)[C@@H](C)[C@H](OC(C)=O)[C@@H]1C |  |  |  | H37Rv |  | MIC | 0.0025 µg/mL |
| C[CH2][Sn]([I])([I])[CH2]C.c1cnc2c(c1)ccc1cccnc12 | BACTEC |  |  | H37Rv |  | MIC bound | ≤12.5 µg/mL |
| CO[C@H]1/C=C/O[C@@]2(C)Oc3c(C)c(O)c4c(O)c(c5[nH]c(N6CCCCCC6)nc5c4c3C2=O)NC(=O)/C(C)=C\C=C\[C@H](C)[C@H](O)[C@@H](C)[C@@H](O)[C@@H](C)[C@H](OC(C)=O)[C@@H]1C |  |  |  | H37Rv |  | MIC | 0.01 µg/mL |
| COc1ccc2c(c1)c(-c1cc3ccccc3oc1=O)cn2C(=O)c1ccc(Cl)cc1 | BACTEC |  |  | H37Rv |  | MIC bound | >6.25 µg/mL |
| CCC[C@@H](OC(C)=O)C1=C(Br)/C(=C/Br)OC1=O |  |  |  | H37Rv |  | MIC | >128 µg/mL |
| NNC(=O)c1ccncc1 |  |  |  | NHN20 |  | MIC99 | 0.03 µg/mL |
| NCC(=O)N[C@@H](CO)C(=O)O | BACTEC |  |  | H37Rv |  | MIC | ≥12.8 µg/mL |
| [C-]#[N+][C@@]1(C)CC[C@H]2[C@H]3[C@@H](C(=C)CC[C@@H]31)[C@H](CC(C)(C)N=C=S)C[C@@H]2C |  |  |  | H37Rv |  | MIC | 4 µg/mL |
| O=C1C(=O)c2cccnc2C(O)=C1CCCC1CCCCC1 | resazurin |  |  | H37Rv |  | MIC bound | >6.25 µg/mL |
| CO[C@H]1/C=C/O[C@@]2(C)Oc3c(C)c(O)c4c(=O)c(c5oc6cc(N7CCN(CC(C)C)CC7)cc(=O)c6nc5c4c3=C2O)NC(=O)/C(C)=C\C=C\[C@H](C)[C@H](O)[C@@H](C)[C@@H](O)[C@@H](C)[C@H](OC(C)=O)[C@@H]1C |  |  |  | H37Rv |  | MIC | ≤0.015 µg/mL |